Pooled drug test results. Numbers come from NIAID ChemDB, via PubChem.

Shared fields: tests on isolated targets; agent: HIV-1; protein: Reverse transcriptase; read-out: IC50

Neighbouring rows are from separate reports. Blank or dashed fields: not listed here. ICn: concentration for n% inhibition.

{"SMILES": "C#Cc1ccc(Nc2nccc(Oc3c(C)cc(-c4cn(CC(=O)Nc5ccc(F)cc5)nn4)cc3C)n2)cc1", "method": "RT activity / ELISA", "value": "0.36 µM"}
{"SMILES": "COc1ccccc1NCC(=O)Cn1cc([N+](=O)[O-])nc1C", "method": "RT activity / nucleotide incorporation", "value": ">100 µM"}
{"SMILES": "CCc1c(Sc2ccccc2)n(COCc2ccccc2)c(=O)[nH]c1=O", "method": "RT activity", "mutations": "RT-T181C", "value": "9.6 µM"}
{"SMILES": "COc1ccc2c(c1)N(C(=O)OC(C)C)[C@@H](CSC)C(=S)N2", "method": "scintillation proximity / radiometric", "mutations": "RT-Y181C", "value": "0.56 µM"}
{"SMILES": "CCN1c2ncc(COc3ccc(C(=O)OC)cc3)cc2C(=O)N(C)c2ccc(Cl)nc21", "strain or isolate": "WT", "method": "nucleotide incorporation / radiometric", "value": "<1 µM"}
{"SMILES": "C#Cc1ccc(Nc2nccc(Oc3c(C)cc(-c4cn(Cc5ccc(C#N)cc5)nn4)cc3C)n2)cc1", "method": "RT activity / ELISA", "value": "0.4 µM"}
{"SMILES": "Cc1ccc(CCNC(=S)Nc2ccc(Br)cn2)cc1", "method": "scintillation proximity", "value": "0.4 µM"}
{"SMILES": "CC1SC(c2c(F)cccc2F)N(Cc2ccco2)C1=O", "method": "ELISA", "value": ">10 µg/mL"}
{"SMILES": "COc1ccc(C(C)=O)c(O)c1[C@H]1C[C@H]1NC(=S)Nc1ccc(Cl)cn1", "method": "ELISA", "value": "0.24 µM"}
{"SMILES": "CCN1c2ncc(COc3ccc(O)cc3)cc2C(=O)N(C)c2ccc(Cl)nc21", "method": "nucleotide incorporation / radiometric", "mutations": "RT-Y181C", "value": ">1 µM"}
{"SMILES": "Nc1ccc(C(=O)N2CCN(C(=O)c3cc(O)c(O)c(O)c3)CC2)cc1", "strain or isolate": "BH10", "method": "ELISA / nucleotide incorporation", "value": ">50 µM"}
{"SMILES": "CC(=O)O[C@H]1c2c(c3c(c4c(-c5ccccc5)cc(=O)oc24)OC(C)(C)C=C3)O[C@H](C)[C@H]1C", "strain or isolate": "IIIB", "method": "scintillation proximity / radiometric", "value": "0.125 µM"}
{"SMILES": "CCN1c2ncc(COc3ccccc3C(=O)OC)cc2C(=O)N(C)c2ccc(Cl)nc21", "strain or isolate": "WT", "method": "nucleotide incorporation / radiometric", "value": ">1 µM"}
{"SMILES": "C#Cc1ccc(Nc2nccc(Oc3c(C)cc(-c4cn(Cc5ccc([N+](=O)[O-])cc5)nn4)cc3C)n2)cc1", "method": "RT activity / ELISA", "value": "0.15 µM"}
{"SMILES": "O=C(Nc1nnc(-c2ccc3c(c2)CCCC3)o1)C1=COCCO1", "strain or isolate": "NL4-3", "method": "RT activity / nucleotide incorporation / luminescence", "mutations": "K103N/Y181C", "value": "0.75 µM"}
{"SMILES": "C#Cc1ccc(Nc2nccc(Oc3c(C)cc(-c4cn(Cc5ccc(O)cc5)nn4)cc3C)n2)cc1", "method": "RT activity / ELISA", "value": "0.04 µM"}
{"SMILES": "Cc1cn([C@H]2CC[C@@H](COP([O-])(=S)OP(=O)(O)C(F)(F)P(=O)(O)O)O2)c(=O)[nH]c1=O", "method": "fluorescence", "value": ">0.5 µM"}
{"SMILES": "O=C(NCCc1ccc(O)c(O)c1)c1cc2cc(O)c(O)cc2[nH]1", "method": "RT activity / fluorescence", "value": ">100 µM"}
{"SMILES": "COC(=O)c1ccc(C(=O)N2CCC(NC(=O)c3cc(O)c(O)c(O)c3)CC2)cc1", "strain or isolate": "BH10", "method": "ELISA / nucleotide incorporation", "value": ">289.6 µM"}
{"SMILES": "Cc1ccc(NCC(=O)Cn2cc([N+](=O)[O-])nc2C)cc1", "method": "RT activity / nucleotide incorporation", "value": ">100 µM"}
{"SMILES": "CCN1c2ncc(CO)cc2C(=O)N(C)c2ccc(Cl)nc21", "method": "nucleotide incorporation / radiometric", "mutations": "RT-Y181C", "value": "<1 µM"}
{"SMILES": "Cc1cc(C)cc([C@]23SCCN2C(=O)c2ccccc23)c1", "strain or isolate": "IIIB", "method": "ELISA", "mutations": "RT-K103N", "value": "10.6 µM"}
{"SMILES": "CCN1c2ncc(CSc3ccccc3)cc2C(=O)N(C)c2ccc(Cl)nc21", "method": "nucleotide incorporation / radiometric", "mutations": "RT-Y181C", "value": "<1 µM"}
{"SMILES": "Nc1ccn([C@@H]2CS[C@H](COP([O-])(=S)OP(=O)(O)C(F)(F)P(=O)(O)O)O2)c(=O)n1", "method": "fluorescence", "value": ">10 µM"}
{"SMILES": "O=C1c2ccccc2C2(c3ccccc3)SCCN12", "strain or isolate": "IIIB", "method": "ELISA", "value": "1.41 µM"}
{"SMILES": "CC(C)(C)c1ccc(S(=O)(=O)N2CCC(NC(=O)c3cc(O)c(O)c(O)c3)CC2)cc1", "strain or isolate": "BH10", "method": "ELISA / nucleotide incorporation", "value": ">71.1 µM"}
{"SMILES": "COC(=O)C(CO)N=Cc1c(O)c(O)c(C(C)C)c2cc(C)c(-c3c(C)cc4c(C(C)C)c(O)c(O)c(C=NC(CO)C(=O)OC)c4c3O)c(O)c12", "strain or isolate": "LAV", "method": "HPLC", "value": "14.4 µM"}
{"SMILES": "O=C(Nc1cc(-c2ccc3c(c2)CCCC3)[nH]n1)c1ccc(-c2ccncc2)s1", "strain or isolate": "NL4-3", "method": "RT activity / nucleotide incorporation / luminescence", "mutations": "WT", "value": "0.36 µM"}
{"SMILES": "Cc1cc2c(C(C)C)c(O)c(O)c(C=Nc3ccccc3)c2c(O)c1-c1c(C)cc2c(C(C)C)c(O)c(O)c(C=Nc3ccccc3)c2c1O", "strain or isolate": "LAV", "method": "HPLC", "value": ">100 µM"}
{"SMILES": "Cc1nc([N+](=O)[O-])cn1CC(=O)CNc1ccc(Cl)cc1", "method": "RT activity / nucleotide incorporation", "value": ">100 µM"}
{"SMILES": "O=C(Nc1cc(-c2ccc3c(c2)CCCC3)[nH]n1)c1ncccn1", "strain or isolate": "NL4-3", "method": "RT activity / nucleotide incorporation / luminescence", "mutations": "WT", "value": "1.1 µM"}
{"SMILES": "C#Cc1ccc(Nc2nccc(Oc3c(C)cc(-c4cn(-c5cccc(C(=O)OC)c5)nn4)cc3C)n2)cc1", "method": "RT activity / ELISA", "value": "0.05 µM"}
{"SMILES": "Cc1cn([C@H]2C[C@H](N=[N+]=[N-])[C@@H](COP(=S)([S-])OP(=O)(O)C(F)(F)P(=O)(O)O)O2)c(=O)[nH]c1=O", "method": "fluorescence", "value": ">0.5 µM"}
{"SMILES": "C=C/C=C(\\C=C/Cc1c2nc(c(-c3ccc(S(=O)(=O)NCCN(CC)CC)cc3)c3ccc([n-]3)c(C/C=C\\C(=C/C=C)S(=O)(=O)NCCN(CC)CC)c3ccc([n-]3)c(-c3ccc(S(=O)(=O)NCCN(CC)CC)cc3)c3nc1C=C3)C=C2)S(=O)(=O)NCCN(CC)CC.[O]=[V+2]", "method": "ELISA", "value": "<50 µM"}
{"SMILES": "O=C(c1ccc(F)cc1)N1CCN(C(=O)c2cc(O)c(O)c(O)c2)CC1", "strain or isolate": "BH10", "method": "ELISA / nucleotide incorporation", "value": ">50 µM"}
{"SMILES": "O=C(NCCNC(=O)c1cc2cc(O)c(O)cc2[nH]1)c1cc2cc(O)c(O)cc2[nH]1", "method": "RT activity / fluorescence", "value": "37 µM"}
{"SMILES": "CCN1c2ncc(CS(=O)(=O)c3ccccc3)cc2C(=O)N(C)c2ccc(Cl)nc21", "method": "nucleotide incorporation / radiometric", "mutations": "RT-Y181C", "value": "<1 µM"}
{"SMILES": "COc1cc2c(ccc3c4cc(OC)c(OC)cc4c[n+](C)c23)cc1O", "method": "RT activity / radiometric", "value": "26.4 µM"}
{"SMILES": "Cc1cccc(N2C(=O)CSC23CCCCC3)n1", "method": "ELISA", "value": ">10 µg/mL"}
{"SMILES": "CCn1cnc2ncn([C@@H]3O[C@H](CO[Si](C)(C)C(C)(C)C)C4(OS(=O)(=O)C=C4N)[C@H]3O[Si](C)(C)C(C)(C)C)c2c1=O", "method": "ELISA", "value": "<16 µM"}
{"SMILES": "Cc1c(-c2cnccn2)ssc1=S", "strain or isolate": "IIIB", "method": "fluorescence", "value": "~38 µM"}
{"SMILES": "O=C(Nc1cc(-c2ccc3c(c2)CCCC3)[nH]n1)c1ccno1", "strain or isolate": "NL4-3", "method": "RT activity / nucleotide incorporation / luminescence", "mutations": "WT", "value": "0.92 µM"}
{"SMILES": "COc1ccc(CCNC(=S)Nc2ccc(Br)cn2)cc1", "method": "scintillation proximity", "value": "1 µM"}
{"SMILES": "Cc1cnc([N+](=O)[O-])n1CCC(=O)Nc1cccc(O)c1", "method": "RT activity / nucleotide incorporation", "value": ">100 µM"}
{"SMILES": "CC[C@@]1(O)C(=O)OCc2c1cc1n(c2=O)Cc2c-1nc1ccccc1c2CO", "method": "RT activity / ELISA", "value": ">17 µg/mL"}
{"SMILES": "CC(=O)N1CCC(NC(=O)c2cc(O)c(O)c(O)c2)CC1", "strain or isolate": "BH10", "method": "ELISA / nucleotide incorporation", "value": ">407.7 µM"}
{"SMILES": "CN(C)c1ccc(C2SCC(=O)N2c2ccccn2)cc1", "method": "ELISA", "value": ">10 µg/mL"}
{"SMILES": "CCc1c([Se]c2ccccn2)n(COCc2ccccc2)c(=O)[nH]c1=O", "strain or isolate": "RT-WT", "method": "RT activity", "value": "0.1 µM"}
{"SMILES": "O=C(Nc1cc(-c2ccc3c(c2)CCCC3)[nH]n1)c1cccs1", "strain or isolate": "NL4-3", "method": "RT activity / nucleotide incorporation / luminescence", "mutations": "WT", "value": "1.5 µM"}
{"SMILES": "Nc1ccn([C@@H]2CS[C@H](COP(=O)(O)OP(=O)(O)C(F)(F)P(=O)(O)O)O2)c(=O)n1", "method": "fluorescence", "value": ">0.5 µM"}
{"SMILES": "Cc1cc2c(C(C)C)c(O)c(O)cc2c(O)c1-c1c(C)cc2c(C(C)C)c(O)c(O)cc2c1O", "strain or isolate": "LAV", "method": "HPLC", "value": "4.4 µM"}
{"SMILES": "Nc1nc2c(ncn2[C@H]2C=C[C@@H](COP([O-])(=S)OP(=O)(O)C(F)(F)P(=O)(O)O)C2)c(=O)[nH]1", "method": "fluorescence", "value": ">10 µM"}
{"SMILES": "COc1ccc(S(=O)(=O)N2CCC(NC(=O)c3cc(O)c(O)c(O)c3)CC2)cc1", "strain or isolate": "BH10", "method": "ELISA / nucleotide incorporation", "value": "46.7 µM"}
{"SMILES": "CC(C)=CCN1Cc2cccc3[nH]c(=S)n(c23)C[C@@H]1C", "strain or isolate": "RT-WT", "method": "RT activity", "value": "0.5 µM"}
{"SMILES": "Cc1cc(S(N)(=O)=O)ccc1NC(=O)COc1ccc(Cl)cc1C(=O)c1cc(Cl)cc(C#N)c1", "method": "fluorescence", "mutations": "RT-V106A Y181C", "value": "0.0035 µM"}

Repeating the final 7 entries:

SMILES | strain or isolate | method | mutations | value
O=C(Nc1cc(-c2ccc3c(c2)CCCC3)[nH]n1)c1cccs1 | NL4-3 | RT activity / nucleotide incorporation / luminescence | WT | 1.5 µM
Nc1ccn([C@@H]2CS[C@H](COP(=O)(O)OP(=O)(O)C(F)(F)P(=O)(O)O)O2)c(=O)n1 | - | fluorescence | - | >0.5 µM
Cc1cc2c(C(C)C)c(O)c(O)cc2c(O)c1-c1c(C)cc2c(C(C)C)c(O)c(O)cc2c1O | LAV | HPLC | - | 4.4 µM
Nc1nc2c(ncn2[C@H]2C=C[C@@H](COP([O-])(=S)OP(=O)(O)C(F)(F)P(=O)(O)O)C2)c(=O)[nH]1 | - | fluorescence | - | >10 µM
COc1ccc(S(=O)(=O)N2CCC(NC(=O)c3cc(O)c(O)c(O)c3)CC2)cc1 | BH10 | ELISA / nucleotide incorporation | - | 46.7 µM
CC(C)=CCN1Cc2cccc3[nH]c(=S)n(c23)C[C@@H]1C | RT-WT | RT activity | - | 0.5 µM
Cc1cc(S(N)(=O)=O)ccc1NC(=O)COc1ccc(Cl)cc1C(=O)c1cc(Cl)cc(C#N)c1 | - | fluorescence | RT-V106A Y181C | 0.0035 µM